In article PMC2580030 one finds t1/2, fold effect on affinity against unlabeled HA and Kd data, which are given here for three substances.

Assay [1] addresses recombinant soluble empty (peptide free) HLA-DR1 (human). Put plainly: native gel or EMSA. A general note: In EMSA bound probe runs differently from free probe, usually more slowly.
The target is the same in assay [2].
Assay [3] shares this target. This is another data set of the same source.

Regarding HA 306-318 peptide, fluorescein-labeled, the t1/2 in assay [1] is 7.46 h.

With QSY-7 labeled HA 306-318 peptide, in assay [2], the fold effect on affinity against unlabeled HA worked out at 3 fold.

As a reminder, the Kd is the equilibrium constant for the complex coming apart. Regarding unlabeled HA 306-318 peptide, the Kd in assay [3] was determined as 0.0833 µM.
